Results of unrelated studies side by side (data: NIAID ChemDB).

Common to all: whole-cell or culture tests; species: Candida albicans

Conditions beyond the fields shown may differ between rows. ECn: concentration that inhibits the pathogen or its effect by n%. Blank or dashed fields: not listed here. MIC50, MIC90 and the like: level of inhibition, or share of isolates inhibited.

structure,read-out,method,strain,setting,value
Cc1c(S(=O)(=O)c2ccccc2)[n+](=O)c2cc(Cl)ccc2n1[O-],MIC,,Clinical isolate 10,,15.6 µg/mL
CC(/C=C/C=C(\C)C(O)C(C)C(=O)O[C@H]1C[C@@H](C)C=C2C=C[C@]3(C)O[C@@H](O)CC(=O)[C@]3(C)[C@H]21)=C\C=C\C(=O)O,MIC,,ATCC 62376,,0.78 µg/mL
C[C@@H](N1CCN(Cc2cn(Cc3cccc(C(F)(F)F)c3)c3c(F)cccc23)CC1)[C@](O)(Cn1cncn1)c1ccc(F)cc1F,MIC80,resazurin,ATCC 36082,,0.125 µg/mL
O=c1c(OC2CCCC2)c(N2CCN(S(=O)(=O)NCc3ccccc3)CC2)cnn1-c1cccc(Cl)c1,MIC,broth dilution,C693,,6.25 µg/mL
CCCCCCCCC(=O)[C@H]1O[C@H]1C(=O)NCc1ccccc1,MIC,,G2-sensitive,,6.25 µg/mL
CCCCCCCCCCCC[N+](C)(C)CSCCC,MBC,,ATCC 10231,,296 µM
COC(=O)[C@H](Cc1ccc(O)cc1)NC(=O)[C@@H](NC(=O)[C@H](Cc1ccccc1)NC(=O)COc1c(Br)c(=O)oc2ccccc12)C(C)C,MIC,,,,6.25 µg/mL
Nn1c(SCC(O)(Cn2cncn2)c2ccc(Cl)cc2Cl)nnc1-c1ccc(F)cc1,MIC,broth dilution,PTCC 6027,,>64 µg/mL
CNc1ccc(C(=O)CC(O)CCC(C)C2OC(=O)CC(O)CC(=O)CC(O)CC(O)CC(O)CC(O)CC3(O)CC(O)C(C(=O)NCCc4ccccn4)C(CC(O[C@@H]4O[C@H](C)[C@@H](O)[C@H](NC(=O)CCN5CCCCC5)[C@@H]4O)/C=C/C=C/C=C/C=C\C=C/C=C/C=C/C2C)O3)cc1,MIC,,200,,>0.96 µg/mL
CN(CCCC#CC(C)(C)C)c1cccc2c1CCC(=O)N2,MIC,,Clinical isolate 20,,15.6 µg/mL
Nn1c(SCC(O)(Cn2cncn2)c2ccc(Cl)cc2Cl)nnc1-c1ccc(Cl)cc1Cl,MIC,broth dilution,PTCC 6027,,8 µg/mL
CC(C)CC1NC(=O)CC(CCCCCCCCC(C)O)OC(=O)C(CC(C)C)NC(=O)C(CC(C)C)NC(=O)C(CC(C)C)NC(=O)C(C(C)C)NC(=O)C(CC(=O)O)NC(=O)C(CC(C)C)NC1=O,MIC,absorbance,ATCC 10231,,1 µg/mL
Nn1c(SCC(O)(Cn2cncn2)c2ccc(Cl)cc2Cl)nnc1-c1ccc(Cl)cc1,MIC,broth dilution,PTCC 6027,,>64 µg/mL
CCCCCCCCCCCC[N+](C)(C)COC(CCC)CCC,MIC,,ATCC 10231,,26.4 µM
Nc1[nH]c(=O)ncc1F,EC90,broth dilution,15 isolates,pH 7,1 µg/mL
Nn1c(SCC(O)(Cn2cncn2)c2ccc(Cl)cc2Cl)nnc1-c1ccc(O)cc1,MIC,broth dilution,IRFC 36,,64 µg/mL
CC(C)=C[C@H]1C[C@](C)(O)C2C3CCC4[C@@]5(C)CCC[C@](C)(O[C@H]6OC[C@H](O)[C@H](OC7O[C@H](CO)[C@@H](O)[C@H](O)[C@H]7OC(=O)/C=C/c7ccc(O)cc7)[C@H]6O[C@H]6C[C@H](CO)[C@@H](O)[C@@H]6O)C5CC[C@@]4(C)[C@@]34CO[C@@]2(C4)O1,MIC,,,,>50 µg/mL
CNc1ccc(C(=O)CC(O)CCC(C)C2OC(=O)CC(O)CC(=O)CC(O)CC(O)CC(O)CC(O)CC3(O)CC(O)C(C(=O)N4CCN(CCO)CC4)C(CC(O[C@@H]4O[C@H](C)[C@@H](O)[C@H](NC(=O)CN(C)C)[C@@H]4O)/C=C/C=C/C=C/C=C\C=C/C=C/C=C/C2C)O3)cc1,MIC,,200,,0.015 µg/mL
CC1CCC(C(C)C)C(OC(=O)c2ccccc2)C1,MIC,,,,12.02 µM
Nn1c(SCC(O)(Cn2cncn2)c2ccc(F)cc2F)nnc1-c1ccccc1,MIC,broth dilution,ATCC 18804,,>64 µg/mL
CCC(=O)OC1CC(C)CCC1C(C)C,MIC,,,,14.79 µM
CCCCCCCC[N+](C)(C)COC1CCCCCCCCCCC1,MBC,,ATCC 10231,,256 µM
CC(O)Cc1ccc(Cn2cc(CN3CCN([C@H](C)[C@](O)(Cn4cncn4)c4ccc(F)cc4F)CC3)c3ccccc32)cc1,MIC80,resazurin,ATCC 36082,,4 µg/mL
CC1CCC(C(C)C)C(OC(=O)c2cccc([N+](=O)[O-])c2)C1,MIC,,,,4.68 µM
COC(=O)[C@H](Cc1c[nH]c2ccccc12)OC(=O)[C@H](Cc1cnc[nH]1)NC(=O)COc1c(Br)c(=O)oc2ccccc12,MIC,,,,6.25 µg/mL
C[C@H]1[C@H](O)[C@@H](C)/C=C/C=C/C=C/C=C/C=C/C=C/C=C/[C@H](O[C@@H]2O[C@H](C)[C@@H](O)[C@H](N)[C@@H]2O)C[C@@H]2O[C@](O)(C[C@@H](O)C[C@@H](O)CC[C@H](O)[C@@H](O)C[C@@H](O)CC(=O)O[C@H]1C)C[C@H](O)[C@H]2C(=O)O,MIC,,73,,0.24 µg/mL
C[C@H]1[C@H](O)[C@@H](C)/C=C/C=C/C=C/C=C/C=C/C=C/C=C/[C@H](O[C@@H]2O[C@H](C)[C@@H](O)[C@H](N)[C@@H]2O)C[C@@H]2O[C@](O)(C[C@@H](O)C[C@@H](O)CC[C@H](O)[C@@H](O)C[C@@H](O)CC(=O)O[C@H]1C)C[C@H](O)[C@H]2C(=O)O,MIC,,ATCC 64548,,0.25 µg/mL
CC[C@@H]([C@H](C)O)n1ncn(-c2ccc(N3CCN(c4ccc(OC[C@@H]5CO[C@@](Cn6cncn6)(c6ccc(F)cc6F)C5)cc4)CC3)cc2)c1=O,MIC,,Isolate CA-3,,>4 µg/mL
Clc1ccc(COC(Cn2ccnc2)c2ccc(Cl)cc2Cl)c(Cl)c1,EC90,broth dilution,10 isolates,pH 7,1 µg/mL
COc1cccc(C(=O)OC2CC(C)CCC2C(C)C)c1,MIC,,,,10.72 µM
C[C@@H](N1CCN(Cc2cn(Cc3ccc(F)cc3F)c3c(Cl)cccc23)CC1)[C@](O)(Cn1cncn1)c1ccc(F)cc1F,MIC80,resazurin,ATCC 64548,,0.125 µg/mL
CCCCCCCCCCCCSC[N+](C)(C)CCCCCCCCCCCC,MBC,,ATCC 10231,,1080 µM
CNc1ccc(C(=O)CC(O)CCC(C)C2OC(=O)CC(O)CC(=O)CC(O)CC(O)CC(O)CC(O)CC3(O)CC(O)C(C(=O)N4CCN(C)CC4)C(CC(O[C@@H]4O[C@H](C)[C@@H](O)[C@H](NC(=O)CN(C)C)[C@@H]4O)/C=C/C=C/C=C/C=C\C=C/C=C/C=C/C2C)O3)cc1,MIC,,73,,0.015 µg/mL
Cc1ccc(-c2c3c(N)c4c(nc3nc3c2c(C)nn3-c2ccccc2)CCC4)cc1,MIC50,broth dilution / absorbance,CCC 127,,31.2 µg/mL
Cc1c(Cl)[n+](=O)c2cc(Cl)ccc2n1[O-],MIC,,Clinical isolate 8,,15.6 µg/mL
CCCCCCCCCCCC[N+](C)(C)COC(CC)CCCCC,MIC,,ATCC 10231,,12.8 µM
CNc1ccc(C(=O)CC(O)CCC(C)C2OC(=O)CC(O)CC(=O)CC(O)CC(O)CC(O)CC(O)CC3(O)CC(O)C(C(=O)N4CCN(CCO)CC4)C(CC(O[C@@H]4O[C@H](C)[C@@H](O)[C@H](NC(=O)CN5CCN(C)CC5)[C@@H]4O)/C=C/C=C/C=C/C=C\C=C/C=C/C=C/C2C)O3)cc1,MIC,,73,,0.06 µg/mL
C[C@@H](N1CCN(Cc2cn(Cc3ccc(F)cc3)c3c(Cl)cccc23)CC1)[C@](O)(Cn1cncn1)c1ccc(F)cc1F,MIC80,resazurin,ATCC 90028,,2 µg/mL
OC(Cn1cncn1)(Cn1cncn1)c1ccc(F)cc1F,MIC,,E81022,,0.39 µg/mL
CC1=CCC(O)(C(C)C)CC1,MIC100,broth dilution,ATCC 14053,,310 µg/mL
Cc1ccc(-c2c3c(N)c4c(nc3nc3c2c(C)nn3-c2ccccc2)CCCCC4)cc1,MIC80,broth dilution / absorbance,CCC 126,,62.5 µg/mL
COC(=O)[C@H](CC(C)C)NC(=O)CNC(=O)[C@@H](NC(=O)[C@H](Cc1ccccc1)NC(=O)COc1cc(=O)oc2ccccc12)[C@@H](C)O,MIC,,,,12.5 µg/mL
COc1ccc(-c2nnc(SCC(O)(Cn3cncn3)c3ccc(Cl)cc3Cl)n2N)cc1,MIC,broth dilution,IRFC 192,,>64 µg/mL
CCCCCCCCCCCC[N+](C)(C)COCCCCCCCC,MBC,,ATCC 10231,,128 µM
Cc1ccc(-c2c3c(N)c4c(nc3nc3c2c(C)nn3-c2ccccc2)CCCC4)cc1,MIC80,broth dilution / absorbance,ATCC 10231,,31.2 µg/mL
CCCCC/C=C/CCC(=O)[C@H]1O[C@H]1C(=O)N1COC1,MIC,,G2-sensitive,,12.5 µg/mL
CCCCCCCCCCCC[N+](C)(C)COC1CCCCCCCCCCC1,MIC,,ATCC 10231,,26.9 µM
C[C@@H](N1CCN(Cc2cn(Cc3ccc(F)cc3F)c3c(C#N)cccc23)CC1)[C@](O)(Cn1cncn1)c1ccc(F)cc1F,MIC80,resazurin,ATCC 90028,,1 µg/mL
COc1ccc(-c2nnc(SCC(O)(Cn3cncn3)c3ccc(F)cc3F)n2N)cc1,MIC,broth dilution,IRFC 192,,>64 µg/mL
C[C@@H](c1ncncc1F)[C@](O)(Cn1cncn1)c1ccc(F)cc1F,EC90,broth dilution,10 isolates,pH 5,1 µg/mL
CCOc1cc2c(cc1F)n([O-])c(C)c(S(=O)(=O)c1ccccc1)[n+]2=O,MIC,,Clinical isolate 10,,31.25 µg/mL
COC(=O)[C@@H]1CCCN1C(=O)CNC(=O)[C@H](C)NC(=O)[C@@H]1CCCN1C(=O)c1ccccc1-c1cnc(C)[nH]1,MIC,,,,25 µg/mL
C[C@H]1[C@H](O)[C@@H](C)/C=C/C=C/C=C/C=C/C=C/C=C/C=C/[C@H](O[C@@H]2O[C@H](C)[C@@H](O)[C@H](N)[C@@H]2O)C[C@@H]2O[C@](O)(C[C@@H](O)C[C@@H](O)CC[C@H](O)[C@@H](O)C[C@@H](O)CC(=O)O[C@H]1C)C[C@H](O)[C@H]2C(=O)O,MIC100,broth dilution / absorbance,CCC 126,,1.56 µg/mL
CC(C)S(=O)(=O)N1CCN(c2cnn(-c3cc(F)cc(F)c3)c(=O)c2OC2CCC(F)C2)CC1,MIC,broth dilution,CLY16996,,0.03 µg/mL
CNc1ccc(C(=O)CC(O)CCC(C)C2OC(=O)CC(O)CC(=O)CC(O)CC(O)CC(O)CC(O)CC3(O)CC(O)C(C(=O)N4CCN(C)CC4)C(CC(O[C@@H]4O[C@H](C)[C@@H](O)[C@H](NC(=O)CN5CCN(C)CC5)[C@@H]4O)/C=C/C=C/C=C/C=C\C=C/C=C/C=C/C2C)O3)cc1,MIC,,73,,0.06 µg/mL
CCC(C)n1ncn(-c2ccc(N3CCN(c4ccc(OC[C@H]5CO[C@](Cn6cncn6)(c6ccc(Cl)cc6Cl)O5)cc4)CC3)cc2)c1=O,MIC90,,,,0.39 µg/mL
Nn1c(SCC(O)(Cn2cncn2)c2ccc(Cl)cc2Cl)nnc1-c1ccncc1,MIC,broth dilution,ATCC 18804,,>64 µg/mL
CCCCCCCCCCCC[N+](C)(C)CSCCCCC,MBC,,ATCC 10231,,137 µM
CCC(C)n1ncn(-c2ccc(N3CCN(c4ccc(OC[C@H]5CO[C@](Cn6cncn6)(c6ccc(Cl)cc6Cl)O5)cc4)CC3)cc2)c1=O,MIC90,,166 isolates,,0.25 µg/mL
CC[C@@H]([C@H](C)O)n1ncn(-c2ccc(N3CCN(c4ccc(OC[C@@H]5CO[C@@](Cn6cncn6)(c6ccc(F)cc6F)C5)cc4)CC3)cc2)c1=O,MIC,broth dilution,10 isolates,pH 7,0.03 µg/mL

6 of the rows above, restated:

structure	read-out	method	strain	setting	value
CCCCCCCCCCCC[N+](C)(C)COCCCCCCCC	MBC		ATCC 10231		128 µM
C[C@@H](N1CCN(Cc2cn(Cc3ccc(F)cc3F)c3c(Cl)cccc23)CC1)[C@](O)(Cn1cncn1)c1ccc(F)cc1F	MIC80	resazurin	ATCC 64548		0.125 µg/mL
OC(Cn1cncn1)(Cn1cncn1)c1ccc(F)cc1F	MIC		E81022		0.39 µg/mL
CC(O)Cc1ccc(Cn2cc(CN3CCN([C@H](C)[C@](O)(Cn4cncn4)c4ccc(F)cc4F)CC3)c3ccccc32)cc1	MIC80	resazurin	ATCC 36082		4 µg/mL
CNc1ccc(C(=O)CC(O)CCC(C)C2OC(=O)CC(O)CC(=O)CC(O)CC(O)CC(O)CC(O)CC3(O)CC(O)C(C(=O)N4CCN(C)CC4)C(CC(O[C@@H]4O[C@H](C)[C@@H](O)[C@H](NC(=O)CN5CCN(C)CC5)[C@@H]4O)/C=C/C=C/C=C/C=C\C=C/C=C/C=C/C2C)O3)cc1	MIC		73		0.06 µg/mL
CNc1ccc(C(=O)CC(O)CCC(C)C2OC(=O)CC(O)CC(=O)CC(O)CC(O)CC(O)CC(O)CC3(O)CC(O)C(C(=O)N4CCN(CCO)CC4)C(CC(O[C@@H]4O[C@H](C)[C@@H](O)[C@H](NC(=O)CN(C)C)[C@@H]4O)/C=C/C=C/C=C/C=C\C=C/C=C/C=C/C2C)O3)cc1	MIC		200		0.015 µg/mL